According to patent EP2096114A1, “Insecticidal Derivates of Substituted Phosphorylated Phenylalkyl Iminooxazolines and Iminothiazolines” (dated 2009):

Assay: lgP (HCOOH) determination
Conditions: values for two diastereomers: first printed value, or the only value where one is printed

| SMILES | logP(HCOOH) |
| --- | --- |
| CCCSP(=S)(OCC)N1CCOC1=NC(C)c1cc(F)cc(F)c1 (centres unmarked) | logP(HCOOH)*=3.10 |
| CCCSP(=S)(OCC)N1CCOC1=NC(C)c1cccc(F)c1 (centres unmarked) | logP(HCOOH)*=2.44 |
